Measured values published in paper PMC9499943 (2022).

Legend:
[1] = biological target: T1, His-tagged RBD (RBD-His) protein of SARS-CoV-2 (SARS-CoV-2, UniProt P0DTC2 319-541); assay: BLI; RBD loaded at 1000 ng/ml (avidity)
[2] = biological target: T1, His-tagged RBD (RBD-His) protein of …; assay: BLI; RBD loaded at 200 ng/ml (avidity)

B1: CoV2-06 (antibody, V domains shown)
VH: QVELQESGPGLVKPSGTLSLTCAVSGGSISSNNWWTWVRQPPGKGLEWIGEIHHSGGTNYNPSLKSRVTMSVDKSKNQFSLNLYSVTAADTAVYYCTRDRAGGTYSGFDFWGQGTLVTVSS
VL: QAVVTQPASVSGSPGQSITISCTGTSSDVGGYNYVSWYQQHPGKAPKLMIYDVSNRPSGVSNRFSGSKSGNTASLTISGLQAEDEADYYCSSYTSSSTVVFGGGTKVTVL
koff [1]: 1.26e-05 s⁻¹
koff [2]: 5.8e-05 s⁻¹
